## HIV-1 5' UTR: effect of mutations on RNA dimer formation

Values reported by Ye et al. 2022 (doi:10.1038/s41594-022-00746-2).

RNA: 5' end of the HIV-1 NL4-3 genome, made in vitro. Positions 1-437 read:
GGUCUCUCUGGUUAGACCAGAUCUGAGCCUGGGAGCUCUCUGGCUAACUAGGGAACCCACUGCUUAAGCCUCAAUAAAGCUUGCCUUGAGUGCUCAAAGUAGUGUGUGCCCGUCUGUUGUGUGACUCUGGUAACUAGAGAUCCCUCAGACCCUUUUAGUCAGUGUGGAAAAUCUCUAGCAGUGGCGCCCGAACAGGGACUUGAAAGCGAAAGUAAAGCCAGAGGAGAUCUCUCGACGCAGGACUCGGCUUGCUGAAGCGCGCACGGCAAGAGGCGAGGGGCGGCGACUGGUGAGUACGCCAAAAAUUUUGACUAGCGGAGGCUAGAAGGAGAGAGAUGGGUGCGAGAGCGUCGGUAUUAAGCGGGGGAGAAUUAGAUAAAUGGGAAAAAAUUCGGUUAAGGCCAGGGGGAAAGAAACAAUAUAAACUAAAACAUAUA

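Randomly mutated transcripts starting with one, two or three G (1G, 2G, 3G), capped or uncapped, were folded for 30 min at 37 °C. Monomer and dimer bands were cut from native gels after folding in high salt (300 mM KCl, 5 mM MgCl2) or low salt (40 mM KCl, 0.1 mM MgCl2). Kdimer compares mutation frequencies in monomer and dimer, corrected for sequencing errors.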

Values are log2 Kdimer, the median over the changes at each position: higher means that changes there hinder dimer formation, below 0 that they favour it.
One numbering serves 1G, 2G and 3G.
A position is written with its base where known.

position,domain,2G capped low-salt,3G capped low-salt
A34,TAR,-0.08,0.13
G42,TAR,-0.18,-0.35
C80,PolyA,0.06,0.32
U86,PolyA,0.05,-0.01
C144,PBS,0.18,0.20
C150,PBS,0.61,0.52
A170,PBS,-0.07,0.00
G178,PBS,0.40,0.72
G197,PBS,0.51,0.98
A215,PBS,-0.27,-0.16
C233,CU,0.48,0.94
G254,SL1,2.27,2.97
G261,SL1,3.00,3.59
G278,none,0.42,0.59
C281,none,0.25,0.68
A286,SL2,-0.12,0.20
U288,SL2,-0.11,-0.13
U291,SL2,-0.32,-0.18
A319,SL3,0.06,0.21
A326,none,-0.02,-0.03
G361,none,0.08,0.41
G365,none,0.05,0.36
U372,none,-0.07,-0.08
A380,none,-0.10,0.06
A411,none,0.07,0.03
A416,none,0.09,0.13
A435,none,-0.06,0.07
438,none,-0.01,-0.08
448,none,0.06,0.22
454,none,-0.11,0.05
467,none,0.09,-0.05
480,none,-0.22,0.06
496,none,0.04,-0.01
515,none,-0.03,-0.11

Extract of 4 entries:

position	domain	2G capped low-salt	3G capped low-salt
G361	none	0.08	0.41
A380	none	-0.10	0.06
G42	TAR	-0.18	-0.35
496	none	0.04	-0.01

The source gives no letters past position 437.